Pooled drug test results. Numbers come from NIAID ChemDB, via PubChem.

All rows: growth or infection tests; organism: HIV-1; cells: MT-2; endpoint: EC50

ECn: concentration that inhibits the pathogen or its effect by n%.

COc1cc(F)ccc1OCCNc1ccc(-c2cnc(C)c([C@H](OC(C)(C)C)C(=O)O)c2N2CCC(C)(C)CC2)nc1 ; strain: NL4-3 ; read by: luminescence ; value: 0.0013 µM
CC(C)C1=C2C3CCC4[C@@]5(C)CC[C@H](OC(=O)[C@H]6CCC[C@@H](C(=O)O)C6)C(C)(C)C5CC[C@@]4(C)[C@]3(C)CC[C@@]2(N)CC1=O ; strain: IIIB ; read by: RT activity ; setting: 30% human serum ; value: >1 µM
COc1ccc(N(C)C(=O)[C@H](Cc2cc(F)cc(F)c2)NC(=O)CN2c3ccccc3N(CC(=O)N[C@@H](Cc3cc(F)cc(F)c3)C(=O)N(C)c3ccc(OC)nc3)S2(=O)=O)cn1 ; strain: NL4-3 ; read by: luciferase ; value: 0.01 µM
CC(C)C1=C2C3CCC4[C@@]5(C)CC[C@H](OC(=O)CC(C)(C)C(=O)O)C(C)(C)C5CC[C@@]4(C)[C@]3(C)CC[C@@]2(NC(=O)NC(C)(C)C(F)(F)F)CC1=O ; strain: IIIB ; read by: RT activity ; setting: 30% human serum ; value: <0.199 µM
CN(C(=O)[C@H](Cc1cc(F)cc(F)c1)NC(=O)c1ccc(F)c(C(=O)N[C@@H](Cc2cc(F)cc(F)c2)C(=O)N(C)c2ccc(C3CC3)cc2)c1)c1ccc(C2CC2)cc1 ; strain: NL4-3 ; read by: luciferase ; value: 0.02 µM
CC(C)C1=C2[C@H]3CC[C@@H]4[C@@]5(C)CC[C@H](OC(=O)[C@H]6C[C@@H](C(=O)O)C6(C)C)C(C)(C)[C@@H]5CC[C@@]4(C)[C@]3(C)CC[C@@]2(CC(=O)NCC(C)(C)NC(=O)c2ccc(F)cc2)CC1=O ; strain: 92HT599 ; read by: p24 / ELISA ; value: <1 µM
COC(=O)N[C@@]12CC[C@]3(C)[C@H](CC[C@@H]4[C@@]5(C)CC[C@H](OC(=O)CC(C)(C)C(=O)O)C(C)(C)[C@@H]5CC[C@]43C)C1=C(C(C)C)C(=O)C2 ; strain: IIIB ; read by: RT activity ; setting: 30% human serum ; value: <0.199 µM
Cc1ncc(-c2cnc(OCCOc3cc(F)cc(F)c3)c(F)c2)c(N2CCC(C)(C)CC2)c1[C@H](OC(C)(C)C)C(=O)O ; strain: NL4-3 ; read by: luminescence ; value: 0.0017 µM
CC(C)C1=C2C3CCC4[C@@]5(C)CC[C@H](OC(=O)CC(C)(C)C(=O)O)C(C)(C)C5CC[C@@]4(C)[C@]3(C)CC[C@@]2(NC(=O)N2CCC(NC(=O)OC(C)(C)C)CC2)CC1=O ; strain: IIIB ; read by: RT activity ; setting: 30% human serum ; value: <0.199 µM
COc1ccc(N(C)C(=O)[C@H](Cc2ccccc2)NC(=O)CCCC(=O)N[C@@H](Cc2ccccc2)C(=O)N(C)c2ccc(OC)cc2)cc1 ; strain: NL4-3 ; read by: luciferase ; value: 1.31 µM
C#C[C@@]1(CO)C=C[C@H](n2cc(C)c(=O)[nH]c2=O)O1 ; strain: Clinical isolate ; changes: D67N/T69N/K70R/K103N/M184V/T215F/K219Q ; read by: recombinant virus assay ; value: 1.55 µM
CC(C)C1=C2[C@H]3CC[C@@H]4[C@@]5(C)CC[C@H](OC(=O)[C@H]6C[C@@H](C(=O)O)C6(C)C)C(C)(C)[C@@H]5CC[C@@]4(C)[C@]3(C)CC[C@@]2(CCNC(=O)c2ccc(N3CCN(C)CC3)cc2)CC1=O ; strain: 92HT599 ; read by: p24 / ELISA ; value: <1 µM
C[C@H](Cn1cnc2c(N)ncnc21)OCP(=O)(O)O ; strain: Clinical isolate ; changes: A62V/T68ins/V75I/A98G/K103S/G190A ; read by: recombinant virus assay ; value: 0.088 µM
CC(C)C1=C2[C@H]3CC[C@@H]4[C@@]5(C)CC[C@H](OC(=O)[C@H]6C[C@@H](C(=O)O)C6(C)C)C(C)(C)[C@@H]5CC[C@@]4(C)[C@]3(C)CC[C@@]2([C@@H](O)CNCC(C)(CCN)NC(=O)c2ccc(Cl)cc2)CC1=O ; strain: 92HT599 ; read by: p24 / ELISA ; value: <1 µM
Cc1ncc(-c2ccc(SCC(C)C)nc2)c(N2CCC(C)(C)CC2)c1[C@H](OC(C)(C)C)C(=O)O ; strain: NL4-3 ; read by: luminescence ; value: 0.0044 µM
CC(C)C1=C2C3CCC4[C@@]5(C)CC[C@H](OC(=O)CC(C)(C)C(=O)O)C(C)(C)C5CC[C@@]4(C)[C@]3(C)CC[C@@]2(NC(=O)NC(C)(C)c2ccccn2)CC1=O ; strain: IIIB ; read by: RT activity ; setting: 30% human serum ; value: <0.199 µM
Cc1cccc(Cl)c1OCCN(C)c1ccc(-c2cnc(C)c([C@H](OC(C)(C)C)C(=O)O)c2N2CCC(C)(C)CC2)cn1 ; strain: NL4-3 ; read by: luminescence ; value: 0.002 µM
CC(C)C1=C2[C@H]3CC[C@@H]4[C@@]5(C)CC[C@H](OC(=O)[C@H]6C[C@@H](C(=O)O)C6(C)C)C(C)(C)[C@@H]5CC[C@@]4(C)[C@]3(C)CC[C@@]2(CCNC(C)(C)c2ncc(Cl)cn2)CC1=O ; strain: 92HT599 ; read by: p24 / ELISA ; value: <1 µM
COc1ccc(N(C)C(=O)[C@H](Cc2ccccc2)NC(=O)Cc2cccc(CC(=O)N[C@@H](Cc3ccccc3)C(=O)N(C)c3ccc(OC)cc3)c2)cc1 ; strain: NL4-3 ; read by: luciferase ; value: 0.85 µM
CC(C)C1=C2[C@H]3CC[C@@H]4[C@@]5(C)CC[C@H](OC(=O)CC(C)(C)C(=O)O)C(C)(C)[C@@H]5CC[C@@]4(C)[C@]3(C)CC[C@@]2(NC(=O)c2ccccn2)CC1=O ; strain: IIIB ; read by: RT activity ; setting: 30% human serum ; value: <0.199 µM
Cc1ccc(OCCN(C)c2ccc(-c3cnc(C)c([C@H](OC(C)(C)C)C(=O)O)c3N3CCC(C)(C)CC3)nc2)cc1F ; strain: NL4-3 ; read by: luminescence ; value: 0.0013 µM
CC(C)C1=C2C3CCC4[C@@]5(C)CC[C@H](OC(=O)CC(C)(C)C(=O)O)C(C)(C)C5CC[C@@]4(C)[C@]3(C)CC[C@@]2(NC(=O)NCc2cccs2)CC1=O ; strain: IIIB ; read by: RT activity ; setting: 30% human serum ; value: <0.199 µM
Cc1ncc(-c2ccc(OC3CCOCC3)cn2)c(N2CCC(C)(C)CC2)c1[C@H](OC(C)(C)C)C(=O)O ; strain: NL4-3 ; read by: luminescence ; value: 0.0159 µM
CC(C)C1=C2[C@H]3CC[C@@H]4[C@@]5(C)CC[C@H](OC(=O)[C@H]6C[C@@H](C(=O)O)C6(C)C)C(C)(C)[C@@H]5CC[C@@]4(C)[C@]3(C)CC[C@@]2([C@@H](O)CNC[C@@H](NC(=O)c2ccc(Cl)cc2)C(C)O)CC1=O ; strain: 92HT599 ; read by: p24 / ELISA ; value: <1 µM
CN(C(=O)[C@H](Cc1cc(F)cc(F)c1)NC(=O)NS(=O)(=O)N[C@@H](Cc1cc(F)cc(F)c1)C(=O)N(C)c1ccc2sc(=O)[nH]c2c1)c1ccc2sc(=O)[nH]c2c1 ; strain: NL4-3 ; read by: luciferase ; value: 0.45 µM
Cc1nc2ccc(C(=O)NC[C@H](O)[C@@]34CC[C@]5(C)[C@H](CC[C@@H]6[C@@]7(C)CC[C@H](OC(=O)[C@H]8C[C@@H](C(=O)O)C8(C)C)C(C)(C)[C@@H]7CC[C@]65C)C3=C(C(C)C)C(=O)C4)cc2[nH]1 ; strain: 92HT599 ; read by: p24 / ELISA ; value: <1 µM
CC(C)C1=C2C3CCC4[C@@]5(C)CC[C@H](OC(=O)CC(C)(C)C(=O)O)C(C)(C)C5CC[C@@]4(C)[C@]3(C)CC[C@@]2(NC(=O)OCC2CCN(C)C2)CC1=O ; strain: IIIB ; read by: RT activity ; setting: 30% human serum ; value: <0.199 µM
CC(C)C1=C2[C@H]3CC[C@@H]4[C@@]5(C)CC[C@H](OC(=O)[C@H]6C[C@@H](C(=O)O)C6(C)C)C(C)(C)[C@@H]5CC[C@@]4(C)[C@]3(C)CC[C@@]2(CCNCc2ccc(CN3CCC(O)CC3)cc2)CC1=O ; strain: 92HT599 ; read by: p24 / ELISA ; value: <1 µM
CC(C)C1=C2[C@H]3CC[C@@H]4[C@@]5(C)CC[C@H](OC(=O)CC(C)(C)C(=O)O)C(C)(C)[C@@H]5CC[C@@]4(C)[C@]3(C)CC[C@@]2(NC(=O)NC2CCN(C(=O)OC(C)(C)C)CC2)CC1=O ; strain: IIIB ; read by: RT activity ; setting: 30% human serum ; value: <0.199 µM

A second listing of 4 rows from above:

CC(C)C1=C2C3CCC4[C@@]5(C)CC[C@H](OC(=O)CC(C)(C)C(=O)O)C(C)(C)C5CC[C@@]4(C)[C@]3(C)CC[C@@]2(NC(=O)NC(C)(C)C(F)(F)F)CC1=O ; strain: IIIB ; read by: RT activity ; setting: 30% human serum ; value: <0.199 µM
CC(C)C1=C2C3CCC4[C@@]5(C)CC[C@H](OC(=O)CC(C)(C)C(=O)O)C(C)(C)C5CC[C@@]4(C)[C@]3(C)CC[C@@]2(NC(=O)N2CCC(NC(=O)OC(C)(C)C)CC2)CC1=O ; strain: IIIB ; read by: RT activity ; setting: 30% human serum ; value: <0.199 µM
CC(C)C1=C2[C@H]3CC[C@@H]4[C@@]5(C)CC[C@H](OC(=O)[C@H]6C[C@@H](C(=O)O)C6(C)C)C(C)(C)[C@@H]5CC[C@@]4(C)[C@]3(C)CC[C@@]2(CCNC(=O)c2ccc(N3CCN(C)CC3)cc2)CC1=O ; strain: 92HT599 ; read by: p24 / ELISA ; value: <1 µM
Cc1ncc(-c2ccc(SCC(C)C)nc2)c(N2CCC(C)(C)CC2)c1[C@H](OC(C)(C)C)C(=O)O ; strain: NL4-3 ; read by: luminescence ; value: 0.0044 µM

Neighbouring rows are from separate reports.